Results of unrelated studies side by side (data: NIAID ChemDB).

Shared fields: whole-cell or culture tests; agent: Hepatitis B virus; endpoint: EC50

a–b is a range or a potency band.

SMILES | strain | cells | method | value
Cn1nc2cc(NS(=O)(=O)C3CC3)cc(F)c2c1C(=O)Nc1ccc(F)c(Cl)c1 | - | HepAD38 | PCR | >1000 µM
CC(C)Cc1cnn2c3c(c(=O)n(-c4ccc(-c5nncn5C)cc4)c12)C[C@@H](C)N(C(=O)c1ccc(Br)c(C(F)(F)F)c1)C3 | - | HepG2.117 | luminescence | ≤0.05 µM
C=C1[C@H](CO)[C@@H](O)C[C@@H]1n1cnc2c(=O)[nH]c(N)nc21 | Genotype D | HepG2-NTCP | fluorescence | 0.00125 µM
CC(C)N(c1ccc(N2CCOCC2)cc1)c1ncnc2ccc(-c3cccs3)cc12 | - | HUH 9B | replicon | 1–5 µM
Cn1nc2ccc(NC(=O)OCc3cccc(-c4ccccc4)c3)cc2c1C(=O)Nc1ccc(F)c(Cl)c1 | - | HepAD38 | PCR | >1000 µM
Cc1cc2cc(-n3c(C(=O)NCc4ccccc4)c4n(c3=O)CCN(C(=O)c3ccc(Br)c(Cl)c3)C4)ccc2o1 | - | HepG2.117 | PCR | 0.1–0.5 µM
O=C(NC1CC1)C(=O)N1CCC(NS(=O)(=O)c2c(F)c(C(=O)Nc3cc(F)c(F)c(F)c3)n3c2CCC3)CC1 | - | HepAD38 cells | PCR | <0.1 µM
Cc1cc(NC(=O)c2c3c(cn2C)S(=O)(=O)N[C@H]2CN(C(=O)C(=O)N[C@H](C)C(F)(F)F)C[C@H]2CO3)ccc1F | Genotype B | HepG2 | PCR | 0.00158 µM
c1csc(-c2ccc3ncnc(Nc4ccc(N5CCOCC5)cc4)c3c2)c1 | - | HUH 9B | replicon | <1 µM
COC(=O)N1CC(Cn2cc(S(=O)(=O)Nc3ccc4c(C(=O)Nc5ccc(F)c(Cl)c5)n(C)nc4c3)cn2)C1 | - | HepAD38 | PCR | >1000 µM
C#CCc1cnn2c3c(c(=O)n(-c4ccc(C(=O)NC)cc4)c12)C[C@@H](C)N(C(=O)c1ccc(Br)c(C(F)(F)F)c1)C3 | - | HepG2.117 | luminescence | ≤0.05 µM
CCOC(=O)C1=C(CN2CC(F)(F)[C@H]3[C@@H]2CCN3C[C@](C)(F)C(=O)O)NC(c2nc(C)cs2)=N[C@H]1c1cccc(F)c1C | - | HepG2.2.15 | PCR | 0.0395 µM
CC(=O)Nc1cccc(-c2ccc3ncnc(Nc4ccc(N5CCOCC5)cc4)c3c2)c1 | - | HUH 9B | replicon | 1–5 µM
Cn1nc2cc(C(=O)Nc3cnn(CC4CC4)c3)ccc2c1C(=O)Nc1ccc(F)c(Cl)c1 | - | HepAD38 | PCR | 100–1000 µM
O=C(c1ccc(Br)c(Cl)c1)N1CCn2c(c3n(c2=O)C[C@@H](F)CN(Cc2ccccc2)C3=O)C1 | - | HepG2.117 | PCR | 0.1–0.5 µM
Cc1c(C(=O)C(=O)NC(C)(C)c2cscn2)c(C)n(C)c1C(=O)Nc1ccc(F)c(C#N)c1 | - | HepG2.2.15 | PCR | 0.001–0.0099 µM
Cn1nc2cc(NS(=O)(=O)N3CCCCC3)ccc2c1C(=O)Nc1ccc(F)c(Cl)c1 | - | HepAD38 | PCR | 100–1000 µM
O=C(O)c1ccc(-c2ccc3ncnc(Nc4ccc(N5CCOCC5)cc4)c3c2)s1 | - | HUH 9B | replicon | 5–25 µM
CC1c2cc(C(=O)O)c(=O)n(C3CC3)c2-c2cc(Cl)c(OCC3CCOCC3)cc2S1(=O)=O | - | Primary human hepatocytes | antigen / visual reading / absorbance | 0.05–0.1 µM
COc1ncc(-c2ccc3ncnc(Nc4ccc(N5CCOCC5)cc4)c3c2)cn1 | - | HUH 9B | replicon | <1 µM
CCOC(=O)C1=C(CN2CC(F)(F)[C@@H]3[C@H]2CON3C[C@H](O)C(C)(C)C(=O)O)NC(c2nccs2)=N[C@H]1c1cccc(F)c1F | - | HepG2.2.15 | PCR | 0.179 µM
Cn1cc(S(=O)(=O)Nc2ncc3c(C(=O)Nc4ccc(F)c(Cl)c4)n(C)nc3n2)cn1 | - | HepAD38 | PCR | >1000 µM
Cc1n[nH]nc1-c1ccc(-n2c(=O)c3c(n4ncc(CC(C)C)c24)CN(C(=O)c2ccc(Br)c(Cl)c2)[C@@H](C)C3)cc1 | - | HepG2.117 | luminescence | 0.05–0.5 µM
C=CCn1cc(S(=O)(=O)N[C@@H]2CCN(C(=O)C(=O)NC)C2)c(F)c1C(=O)Nc1ccc(F)c(F)c1 | - | HepAD38 cells | PCR | <0.1 µM
C[C@H]1Cn2c(c3n(c2=O)C[C@H](F)CN(Cc2ccccc2)C3=O)CN1C(=O)c1ccc(Br)c(Cl)c1 | - | HepG2.117 | PCR | 0.1–0.5 µM
Cc1cc(NC(=O)c2c3c(cn2C)S(=O)(=O)N[C@H]2CN(C(=O)C(=O)NC4(C)COC4)C[C@H]2CO3)ccc1F | - | HepAD38 | PCR | <0.5 µM
CC(C)COc1ccc(-n2c(C(=O)NCc3ccccc3)c3n(c2=O)CCN(C(=O)c2ccc(Br)c(Cl)c2)C3)cc1 | - | HepG2.117 | PCR | 0.1–0.5 µM
CNc1onc2cc(-n3c(=O)c4c(n5ncc(Cc6ccccc6)c35)CN(C(=O)c3ccc(Br)c(Cl)c3)CC4)ccc12 | - | HepG2.117 | luminescence | ≤0.05 µM
Cn1cc2c(c1C(=O)Nc1ccc(F)c(C#N)c1)OC[C@@H]1CN(C(=O)C(=O)NC3(C)COC3)C[C@@H]1NS2(=O)=O | - | HepAD38 | PCR | >0.5 µM
CCn1cc(S(=O)(=O)N[C@@H]2CCN(S(=O)(=O)NC)C2)c(F)c1C(=O)Nc1ccc(F)c(F)c1 | - | HepAD38 cells | PCR | <0.1 µM
Cc1cccc(-n2cc(S(=O)(=O)Nc3ccc4c(C(=O)Nc5ccc(F)c(Cl)c5)n(C)nc4c3)cn2)n1 | - | HepAD38 | PCR | <100 µM
CCNC(=O)C(=O)N1CCC(NS(=O)(=O)c2cn(C)c(C(=O)Nc3cc(F)c(F)c(F)c3)c2F)CC1 | - | HepAD38 cells | PCR | <0.1 µM
COC(=O)C1=C(CN2CC(F)(F)[C@@H]3[C@H]2CON3C[C@@H](OC)C(C)(C)C(=O)O)NC(c2ncoc2C)=N[C@H]1c1ccc(F)cc1Cl | - | HepG2.2.15 | PCR | 0.013 µM
CNC(=O)c1ccc(-n2c(=O)c3c(n4ncc(CC5CC5)c24)CN(C(=O)c2ccc(Br)c(C(F)(F)F)c2)[C@@H](C)C3)nc1 | - | HepG2.117 | luminescence | ≤0.05 µM
O=C(O)c1cc2c(n(C3CC3)c1=O)-c1cc(Cl)c(OC[C@@H]3CCCO3)cc1S(=O)(=O)C2 | - | Primary human hepatocytes | antigen / visual reading / absorbance | 0.05–0.1 µM
Cc1nc(-c2ccc(-n3c(=O)c4c(n5ncc(CC(C)C)c35)CN(C(=O)c3ccc(Cl)c(C(F)(F)F)c3)[C@H](C)C4)cc2)n[nH]1 | - | HepG2.117 | luminescence | ≤0.05 µM
COC(=O)C1=C(CN2CC(F)(F)[C@@H]3[C@H]2CON3CC[C@](C)(O)C(=O)O)NC(c2nccs2)=N[C@H]1c1ccc(F)c(F)c1Cl | - | HepG2.2.15 | PCR | 0.138 µM
Cc1cc(NC(=O)c2c3c(c(Br)n2C)S(=O)(=O)N[C@H]2CN(C(=O)C(=O)N[C@H](C)C(F)(F)F)C[C@H]2CO3)ccc1F | - | HepAD38 | PCR | <0.5 µM
COCCCOc1cc2c(cc1N)-c1c(cc(C(=O)O)c(=O)n1C1CC1)C(C)S2(=O)=O | - | Primary human hepatocytes | antigen / visual reading / absorbance | >0.5 µM
Cc1cnn(-c2ccc(-n3c(=O)c4c(n5ncc(CC(C)C)c35)CN(C(=O)c3ccc(Br)c(C(F)(F)F)c3)[C@@H](C)C4)cc2)c1 | - | HepG2.117 | luminescence | 0.05–0.5 µM
C[C@@H]1CN(Cc2ccccc2)C(=O)c2c3n(c(=O)n2C1)CCN(C(=O)c1ccc(Br)c(Cl)c1)C3 | - | HepG2.117 | PCR | 0.5–5 µM
CC(C)Cc1cnn2c3c(c(=O)n(-c4ccc(-c5nncn5C)cc4)c12)C[C@@H](C)N(C(=O)c1ccc(Br)c(Cl)c1)C3 | - | HepG2.117 | luminescence | ≤0.05 µM
C#CC1(NC(=O)C(=O)c2c(C)c(C(=O)Nc3ccc(F)c(C(F)(F)F)c3)n(C)c2C)CC1(F)F | - | HepG2.2.15 | PCR | <0.001 µM
COc1ccc(-n2cc(S(=O)(=O)Nc3ccc4c(C(=O)Nc5ccc(F)c(Cl)c5)n(C)nc4c3)cn2)nc1 | - | HepAD38 | PCR | <100 µM
CCOC(=O)C1=C(CN2CC(F)(F)[C@H]3[C@@H]2CCN3C[C@@H](O)C(C)(C)C(=O)O)NC(c2nccs2)=N[C@H]1c1cccc(F)c1C#N | - | HepG2.2.15 | PCR | 0.0133 µM
COCCCOc1cc2c(cc1C1CCC1)-c1c(cc(C(=O)O)c(=O)n1C1CC1)C(C)S2(=O)=O | - | Primary human hepatocytes | antigen / visual reading / absorbance | 0.1–0.5 µM
C#C[C@H](NC(=O)C(=O)c1c(C)c(C(=O)Nc2ccc(F)c(C(F)(F)F)c2)n(C)c1C)C1CC1 | - | HepG2.2.15 | PCR | <0.001 µM
c1csc(-c2ccc3ncnc(Nc4ccc(N5CCOCC5)cc4)c3c2)n1 | - | HUH 9B | replicon | <1 µM
COc1ccc(-n2c(C(=O)N[C@@H]3CCc4ccccc43)c3n(c2=O)CCN(C(=O)c2ccc(Br)c(Cl)c2)C3)cc1 | - | HepG2.117 | PCR | 0.5–5 µM
COCCCOc1cc2c(cc1Cl)-c1c(cc(C(=O)O)c(=O)n1C1CCC1)C(C)S2 | - | Primary human hepatocytes | antigen / visual reading / absorbance | 0.1–0.5 µM
CC(C)CCN(c1ccc(N2CCOCC2)cc1)c1ncnc2ccc(-c3cccs3)cc12 | - | HUH 9B | replicon | 1–5 µM
COCCCOc1cc2c(cc1C(=O)N(C)C)-c1c(cc(C(=O)O)c(=O)n1C1CC1)C(C)S2(=O)=O | - | Primary human hepatocytes | antigen / visual reading / absorbance | >0.5 µM
Cc1cc(NC(=O)c2c3c(cn2C)S(=O)(=O)N[C@H]2CN(C(=O)C(=O)NCC4CC4)C[C@H]2CO3)ccc1F | - | HepAD38 | PCR | <0.5 µM
COCCCOc1cc2c(cc1F)-c1c(cc(C(=O)O)c(=O)n1C1CC1)C(C(C)C)S2(=O)=O | - | Primary human hepatocytes | antigen | >0.5 µM
C#CC1(NC(=O)C(=O)c2c(C)c(C(=O)Nc3ccc(F)c(C#N)c3)n(C)c2C)CC1 | - | HepG2.2.15 | PCR | <0.001 µM
O=C(O)c1cc2c(n(C3CC3)c1=O)-c1cc(Cl)c(OCc3cnc(N4CCCC4)nc3)cc1S(=O)(=O)C2 | - | Primary human hepatocytes | antigen / visual reading / absorbance | >0.5 µM
CCOC(=O)C1=C(CN2CC(F)(F)[C@@H]3[C@H]2CON3C[C@H](OC)C(C)(C)C(=O)O)NC(c2nccs2)=N[C@@H]1c1ccc(F)c(F)c1C | - | HepG2.2.15 | PCR | 0.001 µM

A second listing of 6 rows from above:

{"SMILES": "c1csc(-c2ccc3ncnc(Nc4ccc(N5CCOCC5)cc4)c3c2)c1", "cells": "HUH 9B", "method": "replicon", "value": "<1 µM"}
{"SMILES": "CNC(=O)c1ccc(-n2c(=O)c3c(n4ncc(CC5CC5)c24)CN(C(=O)c2ccc(Br)c(C(F)(F)F)c2)[C@@H](C)C3)nc1", "cells": "HepG2.117", "method": "luminescence", "value": "≤0.05 µM"}
{"SMILES": "COCCCOc1cc2c(cc1C(=O)N(C)C)-c1c(cc(C(=O)O)c(=O)n1C1CC1)C(C)S2(=O)=O", "cells": "Primary human hepatocytes", "method": "antigen / visual reading / absorbance", "value": ">0.5 µM"}
{"SMILES": "Cn1nc2cc(NS(=O)(=O)C3CC3)cc(F)c2c1C(=O)Nc1ccc(F)c(Cl)c1", "cells": "HepAD38", "method": "PCR", "value": ">1000 µM"}
{"SMILES": "Cc1cnn(-c2ccc(-n3c(=O)c4c(n5ncc(CC(C)C)c35)CN(C(=O)c3ccc(Br)c(C(F)(F)F)c3)[C@@H](C)C4)cc2)c1", "cells": "HepG2.117", "method": "luminescence", "value": "0.05–0.5 µM"}
{"SMILES": "CC(C)COc1ccc(-n2c(C(=O)NCc3ccccc3)c3n(c2=O)CCN(C(=O)c2ccc(Br)c(Cl)c2)C3)cc1", "cells": "HepG2.117", "method": "PCR", "value": "0.1–0.5 µM"}

ECn is the concentration giving n% inhibition of infection, replication or growth. Blank or dashed fields: not listed here. Rows are shuffled and stem from different studies.